A mixed list of measured activities; the numbers were collected in NIAID ChemDB.

Common to all: growth or infection tests; species: Aspergillus niger; measure: MIC

Conditions beyond the fields shown may differ between rows.

SMILES	strain or isolate	method	value
C[C@H]1[C@H](O)[C@@H](C)/C=C/C=C/C=C/C=C/C=C/C=C/C=C/[C@H](O[C@@H]2O[C@H](C)[C@@H](O)[C@H](N)[C@@H]2O)C[C@@H]2O[C@](O)(C[C@@H](O)C[C@@H](O)CC[C@H](O)[C@@H](O)C[C@@H](O)CC(=O)O[C@H]1C)C[C@H](O)[C@H]2C(=O)O		broth dilution / resazurin	0.98 µg/mL
COC(=O)[C@@H](NC(=O)c1ccccc1-c1cnc(C)[nH]1)[C@@H](C)O			50 µg/mL
CCn1sc(=Nc2ccc(Cl)cc2)n(CC)c1=Nc1ccc(Cl)cc1			20–40 µg/mL
COc1c(CN(C)C)cccc1C1OC(c2ccncc2)=NN1C(C)=Nc1cccc(F)c1	MTCC 8189		3.12 µg/mL
CC(=O)OC12CCC(C(=O)C1)C1C(=O)N(CCCCN3CCN(c4ccccc4O)CC3)C(=O)C12	DSM 1988	broth dilution	>100 µM
O=C(NN1C(=O)/C(=C\c2ccccc2)SC1c1ccc(F)cc1)c1ccc(-c2ccccc2)cc1	MTCC 8189		12.5 µg/mL
Cc1ccc(C(=O)OC2CC(C)CCC2C(C)C)cc1			9.12 µM
N#Cc1c(-c2ccc([N+](=O)[O-])cc2)cc(-c2cc3cc(F)ccc3oc2=O)nc1NS(=O)(=O)c1ccccc1	MTCC 282	turbidity	500 µg/mL
Clc1ccc2c(c1)OCC(n1cnnc1)/C2=N\OCc1ccccc1	ATCC 16401		64 µg/mL
CCn1sc(=Nc2ccc(Br)cc2)n(CC)c1=Nc1ccc(Br)cc1			60–80 µg/mL
COc1ccc(-c2n[nH]c(-c3cn(C4CCN(C)CC4)nn3)n2)cc1		agar	20 µg/mL
CC(=O)OC12CCC(C(=O)C1)C1C(=O)N(CCCN3CCN(c4ccccc4)CC3)C(=O)C12	DSM 1988	broth dilution	>100 µM
Brc1ccc(CO/N=C2/c3ccccc3OCC2n2cncn2)cc1	ATCC 16401		16 µg/mL
CO/N=C/c1ccc(OP2(Oc3ccc(/C=N/OC)cc3OC)=NP(Oc3ccc(/C=N/OC)cc3OC)(Oc3ccc(/C=N/OC)cc3OC)=NP(Oc3ccc(/C=N/OC)cc3OC)(Oc3ccc(/C=N/OC)cc3OC)=N2)c(OC)c1		agar diffusion / agar	>100 µg/mL
COC(=O)[C@H](CC(C)C)NC(=O)CNC(=O)[C@@H](NC(=O)[C@H](Cc1ccccc1)NC(=O)COc1cc(=O)oc2ccccc12)[C@@H](C)O			12.5 µg/mL
Cc1cccc(C(=O)OC2CC(C)CCC2C(C)C)c1			9.33 µM
COC(=O)[C@@H](Cc1ccccc1)NC(=O)CNC(=O)[C@H](Cc1ccccc1)NC(=O)c1ccccc1-c1cnc(C)[nH]1			25 µg/mL
N#Cc1c(-c2cccc(O)c2)cc(-c2cc3cc(F)ccc3oc2=O)nc1NS(=O)(=O)c1ccccc1	MTCC 282	turbidity	100 µg/mL
Clc1ccc(CO/N=C2\c3ccccc3OCC2n2cncn2)c(Cl)c1	ATCC 16401		2 µg/mL
O=C(NN1C(=O)/C(=C\c2cccc([N+](=O)[O-])c2)SC1c1ccccc1)c1ccc(-c2ccccc2)cc1	MTCC 8189		1.56 µg/mL
CC(=O)N1CCC(n2cc(-c3nc(-c4ccc(C)cc4)n[nH]3)nn2)CC1		agar	35 µg/mL
O=C(N[C@H](Cc1cn(CCc2ccccc2)nn1)C(=O)OCc1cn(CCc2ccccc2)nn1)OCc1ccccc1	MTCC 281		19.6 µM
CCn1sc(=Nc2ccc(OC)cc2)n(CC)c1=Nc1ccc(OC)cc1			40–60 µg/mL
COc1cc(/C=N/O)ccc1OP1(Oc2ccc(/C=N/O)cc2OC)=NP(Oc2ccc(/C=N/O)cc2OC)(Oc2ccc(/C=N/O)cc2OC)=NP(Oc2ccc(/C=N/O)cc2OC)(Oc2ccc(/C=N/O)cc2OC)=N1		agar diffusion / agar	>100 µg/mL
CC(=O)OC12CCC(C(=O)C1)C1C(=O)N(CCCCN3CCN(c4ncccn4)CC3)C(=O)C12	DSM 1988	broth dilution	>100 µM
COc1cc(/C=C2/SC(=O)N(CC(=O)Nc3nc4ccc(SC#N)cc4s3)C2=O)ccc1O	MTCC 282	broth dilution / visual reading	500 µg/mL
O=C(NN1C(=O)/C(=C\c2cccc([N+](=O)[O-])c2)SC1c1ccc(F)cc1)c1ccc(-c2ccccc2)cc1	MTCC 8189		6.25 µg/mL
Cc1ccccc1Cn1cc(COC(=O)[C@@H](Cc2cn(Cc3ccccc3C)nn2)NC(=O)OCC(C)(C)C)nn1	MTCC 281		10.1 µM
OC(Cn1cncn1)(Cn1cncn1)c1ccc(F)cc1F	MTCC 1881		10 µg/mL
O=C(CSc1nnc(-c2ccc(N=Cc3cccs3)cc2)o1)Nc1ccc(Br)cc1	MTCC 282	broth dilution	1000 µg/mL
Clc1ccc(CO/N=C2/c3ccc(Cl)cc3OCC2n2cnnc2)c(Cl)c1	ATCC 16401		>64 µg/mL
O=C(CSc1nnc(-c2ccc(N=Cc3cccs3)cc2)o1)Nc1ccc(Cl)c(Cl)c1	MTCC 282	broth dilution	500 µg/mL
N#CSc1ccc2nc(NC(=O)CN3C(=O)S/C(=C/c4cccc(-c5ccco5)c4)C3=O)sc2c1	MTCC 282	broth dilution / visual reading	250 µg/mL
C[C@H]1N(C(=O)c2ccc(C(F)(F)F)cc2)C[C@@H](O)O[C@@]1(Cn1cncn1)c1ccc(F)cc1F	Isolate 2		>64 µg/mL
COc1ccc(-c2cc(-c3cc4cc(F)ccc4oc3=O)nc(NS(=O)(=O)c3ccccc3)c2C#N)cc1	MTCC 282	turbidity	100 µg/mL
COc1cc(/C=N/O)ccc1OP1(Oc2ccc(/C=N/OCc3ccccc3)cc2OC)=NP(Oc2ccc(/C=N/O)cc2OC)(Oc2ccc(/C=N/OCc3ccccc3)cc2OC)=NP(Oc2ccc(/C=N/O)cc2OC)(Oc2ccc(/C=N/OCc3ccccc3)cc2OC)=N1		agar diffusion / agar	>100 µg/mL
Cc1ccc(Cn2cc(COC(=O)[C@@H](Cc3cn(Cc4ccc(C)cc4)nn3)NC(=O)OCc3ccccc3)nn2)cc1	MTCC 281		9.8 µM
CN1CCC(n2cc(-c3nc(-c4ccc(Cl)cc4)n[nH]3)nn2)CC1		agar	40 µg/mL
O=C(NN1C(=O)/C(=C\c2cccc(Br)c2)SC1c1ccccc1)c1ccc(-c2ccccc2)cc1	MTCC 8189		6.25 µg/mL
CC(=O)OC12CCC(C(=O)C1)C1C(=O)NC(=O)C12	DSM 1988	broth dilution	>100 µM
COc1c(CN(C)C)cccc1C1OC(c2ccncc2)=NN1C(C)=Nc1ccccc1F	MTCC 8189		12.5 µg/mL
COc1ccccc1N1CCN(CCCN2C(=O)C3C4CCC(OC(C)=O)(CC4=O)C3C2=O)CC1	DSM 1988	broth dilution	>100 µM
Clc1ccc(CO/N=C2/c3ccccc3OCC2n2cnnc2)cc1	ATCC 16401		16 µg/mL
CCN=C(Nc1ccc(Cl)cc1)N(CC)c1nc2ccc(Cl)cc2s1			40–60 µg/mL
O=C(c1ccc(Cl)cc1)N1CCC(n2cc(-c3nc(-c4ccccc4)n[nH]3)nn2)CC1		agar	>200 µg/mL
Cc1ccccc1NC(=O)CSc1nnc(-c2ccc(N=Cc3cccs3)cc2)o1	MTCC 282	broth dilution	100 µg/mL
CS(=O)(=O)N1CCC(n2cc(-c3nc(-c4ccc(Cl)cc4)n[nH]3)nn2)CC1		agar	30 µg/mL
Cc1ccc(/C=C2/SC(=O)NC2=O)cc1	MTCC 282	broth dilution / visual reading	500 µg/mL
N#Cc1c(-c2ccc(Cl)cc2)cc(-c2cc3cc(F)ccc3oc2=O)nc1NS(=O)(=O)c1ccccc1	MTCC 282	turbidity	1000 µg/mL
CC[C@H](C)[C@H](NC(=O)[C@H](Cc1cnc[nH]1)NC(=O)COc1cc(=O)oc2ccccc12)C(=O)OC			12.5 µg/mL
CC1CCC(C(C)C)C(OC(=O)c2ccc(Cl)cc2)C1			8.91 µM
COC(=O)[C@H](Cc1ccc(O)cc1)NC(=O)[C@@H](NC(=O)[C@H](Cc1ccccc1)NC(=O)COc1c(Br)c(=O)oc2ccccc12)C(C)C			12.5 µg/mL
N#CSc1ccc2nc(NC(=O)CN3C(=O)S/C(=C/c4ccc(F)cc4)C3=O)sc2c1	MTCC 282	broth dilution / visual reading	1000 µg/mL
Cc1cccc(Cn2cc(COC(=O)[C@@H](Cc3cn(Cc4cccc(C)c4)nn3)NC(=O)OCc3ccccc3)nn2)c1	MTCC 281		9.8 µM
C=CCO/N=C/c1ccc(OP2(Oc3ccc(/C=N/OC=C)cc3OC)=NP(Oc3ccc(/C=N/OCC=C)cc3OC)(Oc3ccc(/C=N/OCC=C)cc3OC)=NP(Oc3ccc(/C=N/OCC=C)cc3OC)(Oc3ccc(/C=N/OCC=C)cc3OC)=N2)c(OC)c1		agar diffusion / agar	>100 µg/mL
Cc1ccc(NC(=O)CSc2nnc(-c3ccc(N=Cc4cccs4)cc3)o2)c(C)c1	MTCC 282	broth dilution	250 µg/mL
COC(=O)[C@H](Cc1c[nH]c2ccccc12)OC(=O)[C@H](Cc1cnc[nH]1)NC(=O)COc1c(Br)c(=O)oc2ccccc12			12.5 µg/mL
COc1ccc(C(=O)OC2CC(C)CCC2C(C)C)cc1			9.12 µM

A second listing of 8 rows from above:

SMILES | strain or isolate | method | value
CC(=O)OC12CCC(C(=O)C1)C1C(=O)NC(=O)C12 | DSM 1988 | broth dilution | >100 µM
COC(=O)[C@H](Cc1c[nH]c2ccccc12)OC(=O)[C@H](Cc1cnc[nH]1)NC(=O)COc1c(Br)c(=O)oc2ccccc12 |  |  | 12.5 µg/mL
Cc1ccc(/C=C2/SC(=O)NC2=O)cc1 | MTCC 282 | broth dilution / visual reading | 500 µg/mL
CO/N=C/c1ccc(OP2(Oc3ccc(/C=N/OC)cc3OC)=NP(Oc3ccc(/C=N/OC)cc3OC)(Oc3ccc(/C=N/OC)cc3OC)=NP(Oc3ccc(/C=N/OC)cc3OC)(Oc3ccc(/C=N/OC)cc3OC)=N2)c(OC)c1 |  | agar diffusion / agar | >100 µg/mL
N#Cc1c(-c2ccc(Cl)cc2)cc(-c2cc3cc(F)ccc3oc2=O)nc1NS(=O)(=O)c1ccccc1 | MTCC 282 | turbidity | 1000 µg/mL
C=CCO/N=C/c1ccc(OP2(Oc3ccc(/C=N/OC=C)cc3OC)=NP(Oc3ccc(/C=N/OCC=C)cc3OC)(Oc3ccc(/C=N/OCC=C)cc3OC)=NP(Oc3ccc(/C=N/OCC=C)cc3OC)(Oc3ccc(/C=N/OCC=C)cc3OC)=N2)c(OC)c1 |  | agar diffusion / agar | >100 µg/mL
Clc1ccc(CO/N=C2\c3ccccc3OCC2n2cncn2)c(Cl)c1 | ATCC 16401 |  | 2 µg/mL
O=C(CSc1nnc(-c2ccc(N=Cc3cccs3)cc2)o1)Nc1ccc(Cl)c(Cl)c1 | MTCC 282 | broth dilution | 500 µg/mL

Blank or dashed fields: not listed here. Two numbers with a dash give a range or band.